In test [1] the target is Nicotinic acetylcholine receptor alpha1/beta1/epsilon/delta (Mus musculus) (UniProt P04756+P09690+P02716+P20782). In words: Antagonist activity at mouse alpha1beta1deltaepsilon nACh receptor expressed in Xenopus oocyte assessed as inhibition of acetylcholine-induced response at -70 mV holding potential by measuring ratio of IC50 by voltage-clamp based electrophysiological assay relative to GeXIVA. Conditions: filed as antagonist.

Chains of the proteins cited; added tags and fusions are not shown. Residues count along the entry.
UniProt P04756, 21-457 limits assumed: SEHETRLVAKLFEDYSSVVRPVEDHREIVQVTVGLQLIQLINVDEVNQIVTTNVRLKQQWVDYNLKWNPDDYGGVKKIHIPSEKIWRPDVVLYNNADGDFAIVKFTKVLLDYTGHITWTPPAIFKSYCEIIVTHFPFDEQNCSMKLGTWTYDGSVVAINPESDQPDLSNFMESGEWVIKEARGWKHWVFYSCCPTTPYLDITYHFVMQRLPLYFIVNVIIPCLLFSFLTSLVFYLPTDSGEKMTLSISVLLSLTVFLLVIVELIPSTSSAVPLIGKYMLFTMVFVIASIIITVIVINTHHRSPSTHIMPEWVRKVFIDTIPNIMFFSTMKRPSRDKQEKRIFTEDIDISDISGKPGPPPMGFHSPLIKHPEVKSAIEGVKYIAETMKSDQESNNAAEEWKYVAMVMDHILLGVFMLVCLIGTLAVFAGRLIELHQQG
UniProt P09690, 24-501 partner limits assumed: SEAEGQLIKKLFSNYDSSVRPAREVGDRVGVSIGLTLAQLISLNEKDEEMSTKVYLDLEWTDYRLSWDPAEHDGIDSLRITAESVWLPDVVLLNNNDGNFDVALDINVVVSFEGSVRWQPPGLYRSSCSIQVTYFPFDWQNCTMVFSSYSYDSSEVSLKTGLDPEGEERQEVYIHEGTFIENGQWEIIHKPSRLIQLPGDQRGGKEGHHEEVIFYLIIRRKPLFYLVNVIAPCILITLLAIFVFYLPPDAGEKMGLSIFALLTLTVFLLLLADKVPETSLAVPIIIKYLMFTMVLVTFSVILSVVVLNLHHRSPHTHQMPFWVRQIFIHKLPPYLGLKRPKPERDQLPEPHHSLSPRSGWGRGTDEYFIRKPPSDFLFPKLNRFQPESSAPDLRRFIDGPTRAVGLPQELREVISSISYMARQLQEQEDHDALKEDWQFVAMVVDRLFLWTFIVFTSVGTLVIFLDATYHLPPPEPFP
UniProt P02716, 25-520 partner limits assumed: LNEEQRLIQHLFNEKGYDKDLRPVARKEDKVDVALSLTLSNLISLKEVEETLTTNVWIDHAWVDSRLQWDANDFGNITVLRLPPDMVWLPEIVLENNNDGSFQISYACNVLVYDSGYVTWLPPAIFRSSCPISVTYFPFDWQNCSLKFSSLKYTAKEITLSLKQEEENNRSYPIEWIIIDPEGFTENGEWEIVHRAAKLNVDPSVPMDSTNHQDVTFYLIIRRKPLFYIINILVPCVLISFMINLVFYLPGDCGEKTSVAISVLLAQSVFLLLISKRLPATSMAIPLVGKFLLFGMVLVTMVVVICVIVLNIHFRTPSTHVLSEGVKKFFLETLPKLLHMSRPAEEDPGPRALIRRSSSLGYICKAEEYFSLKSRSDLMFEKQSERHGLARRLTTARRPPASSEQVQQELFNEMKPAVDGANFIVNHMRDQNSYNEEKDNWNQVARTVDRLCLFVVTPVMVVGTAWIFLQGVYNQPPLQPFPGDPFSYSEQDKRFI
UniProt P20782, 21-493 partner limits assumed: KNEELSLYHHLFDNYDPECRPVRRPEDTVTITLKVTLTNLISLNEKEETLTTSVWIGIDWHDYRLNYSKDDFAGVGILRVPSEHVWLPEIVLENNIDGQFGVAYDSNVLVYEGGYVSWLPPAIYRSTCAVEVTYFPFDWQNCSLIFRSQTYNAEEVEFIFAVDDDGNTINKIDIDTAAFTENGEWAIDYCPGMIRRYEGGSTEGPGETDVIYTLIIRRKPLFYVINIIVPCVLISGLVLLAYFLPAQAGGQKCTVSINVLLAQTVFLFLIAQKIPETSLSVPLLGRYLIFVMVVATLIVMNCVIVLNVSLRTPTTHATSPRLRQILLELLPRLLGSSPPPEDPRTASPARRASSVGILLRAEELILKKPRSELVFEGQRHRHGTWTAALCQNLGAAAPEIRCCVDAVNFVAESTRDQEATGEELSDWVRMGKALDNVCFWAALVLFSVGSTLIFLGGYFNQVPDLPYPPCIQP

The nature of test [2]: Selectivity ratio of IC50 for mouse alpha1beta1deltaepsilon nACh receptor to IC50 for rat alpha9alpha10 nACh receptor.

Structures are written as SMILES.

As to `CC[C@H](C)[C@@H]1NC(=O)[C@H](C)NC(=O)[C@H](CCCNC(=N)N)NC(=O)[C@@H]2CSSC[C@H](NC(=O)[C@H](Cc3ccc(O)cc3)NC(=O)[C@H](CCCNC(=N)N)NC(=O)CNC(=O)[C@H](CO)NC(=O)[C@H](CO)NC(=O)[C@H](CCCNC(=N)N)NC(=O)[C@@H](NC(=O)[C@@H](N)[C@@H](C)O)CSSC[C@@H](C(=O)N[C@H](C(=O)O)C(C)C)NC(=O)[C@H](C)NC(=O)[C@H](CC(=O)O)NC(=O)[C@H]([C@@H](C)O)NC1=O)C(=O)N[C@@H](CCCNC(=N)N)C(=O)N[C@@H](CO)C(=O)N1CCC[C@H]1C(=O)N[C@@H](Cc1ccc(O)cc1)C(=O)N[C@@H](CC(=O)O)C(=O)N[C@@H](CCCNC(=N)N)C(=O)N[C@@H](CCCNC(=N)N)C(=O)N[C@@H](CCCNC(=N)N)C(=O)N[C@@H](CCCNC(=N)N)C(=O)N[C@@H](Cc1ccc(O)cc1)C(=O)N2`, the Ratio IC50 in test [1] was found to be 2.8; in test [2], 12.6.
As to `CC[C@H](C)[C@@H]1NC(=O)[C@H](CCCNC(=N)N)NC(=O)[C@H](CCCNC(=N)N)NC(=O)[C@@H](NC(=O)[C@H](Cc2ccc(O)cc2)NC(=O)[C@H](CCCNC(=N)N)NC(=O)[C@H](CCCNC(=N)N)NC(=O)[C@H](CCCNC(=N)N)NC(=O)[C@H](CCCNC(=N)N)NC(=O)[C@H](CC(=O)O)NC(=O)[C@H](C)NC(=O)[C@@H]2CCCN2C(=O)[C@H](CO)NC(=O)[C@H](CCCNC(=N)N)NC(=O)[C@@H]2CSSC[C@H](NC(=O)[C@@H](N)[C@@H](C)O)C(=O)N[C@@H](CCCNC(=N)N)C(=O)N[C@@H](CO)C(=O)N[C@@H](CO)C(=O)NCC(=O)N[C@@H](CCCNC(=N)N)C(=O)N[C@@H](Cc3ccc(O)cc3)C(=O)N2)CSSC[C@@H](C(=O)N[C@H](C(=O)O)C(C)C)NC(=O)[C@H](C)NC(=O)[C@H](CC(=O)O)NC(=O)[C@H]([C@@H](C)O)NC1=O`, the Ratio IC50 in test [1] was found to be 1.9; in test [2], 88.2.
The like results for `CC[C@H](C)[C@@H]1NC(=O)[C@H](CCCNC(=N)N)NC(=O)[C@H](CCCNC(=N)N)NC(=O)[C@@H]2CSSC[C@H](NC(=O)[C@H](Cc3ccc(O)cc3)NC(=O)[C@H](CCCNC(=N)N)NC(=O)CNC(=O)[C@H](CO)NC(=O)[C@H](CO)NC(=O)[C@H](CCCNC(=N)N)NC(=O)[C@@H](NC(=O)[C@@H](N)[C@@H](C)O)CSSC[C@@H](C(=O)N[C@H](C(=O)O)C(C)C)NC(=O)[C@H](C)NC(=O)[C@H](CC(=O)O)NC(=O)[C@H]([C@@H](C)O)NC1=O)C(=O)N[C@@H](CCCNC(=N)N)C(=O)N[C@@H](C)C(=O)N1CCC[C@H]1C(=O)N[C@@H](Cc1ccc(O)cc1)C(=O)N[C@@H](CC(=O)O)C(=O)N[C@@H](CCCNC(=N)N)C(=O)N[C@@H](CCCNC(=N)N)C(=O)N[C@@H](CCCNC(=N)N)C(=O)N[C@@H](CCCNC(=N)N)C(=O)N[C@@H](Cc1ccc(O)cc1)C(=O)N2` were, in that order, 1.5 and 129.
For `CC[C@H](C)[C@@H]1NC(=O)[C@H](CCCNC(=N)N)NC(=O)[C@H](CCCNC(=N)N)NC(=O)[C@@H]2CSSC[C@H](NC(=O)[C@H](Cc3ccc(O)cc3)NC(=O)[C@H](CCCNC(=N)N)NC(=O)CNC(=O)[C@H](CO)NC(=O)[C@H](CO)NC(=O)[C@H](CCCNC(=N)N)NC(=O)[C@@H](NC(=O)[C@@H](N)[C@@H](C)O)CSSC[C@@H](C(=O)N[C@H](C(=O)O)C(C)C)NC(=O)[C@H](C)NC(=O)[C@H](CC(=O)O)NC(=O)[C@H]([C@@H](C)O)NC1=O)C(=O)N[C@@H](CCCNC(=N)N)C(=O)N[C@@H](CO)C(=O)N1CCC[C@H]1C(=O)N[C@@H](Cc1ccc(O)cc1)C(=O)N[C@@H](C)C(=O)N[C@@H](CCCNC(=N)N)C(=O)N[C@@H](CCCNC(=N)N)C(=O)N[C@@H](CCCNC(=N)N)C(=O)N[C@@H](CCCNC(=N)N)C(=O)N[C@@H](Cc1ccc(O)cc1)C(=O)N2`, the Ratio IC50 came to 1 in test [1] and 187 in test [2].
The like results for `CC[C@H](C)[C@@H]1NC(=O)[C@H](CCCNC(=N)N)NC(=O)[C@H](CCCNC(=N)N)NC(=O)[C@@H](NC(=O)[C@H](Cc2ccc(O)cc2)NC(=O)[C@H](CCCNC(=N)N)NC(=O)[C@H](C)NC(=O)[C@H](CCCNC(=N)N)NC(=O)[C@H](CCCNC(=N)N)NC(=O)[C@H](CC(=O)O)NC(=O)[C@H](Cc2ccc(O)cc2)NC(=O)[C@@H]2CCCN2C(=O)[C@H](CO)NC(=O)[C@H](CCCNC(=N)N)NC(=O)[C@@H]2CSSC[C@H](NC(=O)[C@@H](N)[C@@H](C)O)C(=O)N[C@@H](CCCNC(=N)N)C(=O)N[C@@H](CO)C(=O)N[C@@H](CO)C(=O)NCC(=O)N[C@@H](CCCNC(=N)N)C(=O)N[C@@H](Cc3ccc(O)cc3)C(=O)N2)CSSC[C@@H](C(=O)N[C@H](C(=O)O)C(C)C)NC(=O)[C@H](C)NC(=O)[C@H](CC(=O)O)NC(=O)[C@H]([C@@H](C)O)NC1=O` were, in that order, 12.1 and 233.
The like results for `CC[C@H](C)[C@@H]1NC(=O)[C@H](CCCNC(=N)N)NC(=O)[C@H](CCCNC(=N)N)NC(=O)[C@@H]2CSSC[C@H](NC(=O)[C@H](Cc3ccc(O)cc3)NC(=O)[C@H](CCCNC(=N)N)NC(=O)CNC(=O)[C@H](CO)NC(=O)[C@H](CO)NC(=O)[C@H](CCCNC(=N)N)NC(=O)[C@@H](NC(=O)[C@@H](N)[C@@H](C)O)CSSC[C@@H](C(=O)N[C@@H](C)C(=O)O)NC(=O)[C@H](C)NC(=O)[C@H](CC(=O)O)NC(=O)[C@H]([C@@H](C)O)NC1=O)C(=O)N[C@@H](CCCNC(=N)N)C(=O)N[C@@H](CO)C(=O)N1CCC[C@H]1C(=O)N[C@@H](Cc1ccc(O)cc1)C(=O)N[C@@H](CC(=O)O)C(=O)N[C@@H](CCCNC(=N)N)C(=O)N[C@@H](CCCNC(=N)N)C(=O)N[C@@H](CCCNC(=N)N)C(=O)N[C@@H](CCCNC(=N)N)C(=O)N[C@@H](Cc1ccc(O)cc1)C(=O)N2` were, in that order, 1.5 and 20.2.
For `CC[C@H](C)[C@@H]1NC(=O)[C@H](CCCNC(=N)N)NC(=O)[C@H](CCCNC(=N)N)NC(=O)[C@@H]2CSSC[C@H](NC(=O)[C@H](Cc3ccc(O)cc3)NC(=O)[C@H](CCCNC(=N)N)NC(=O)CNC(=O)[C@H](CO)NC(=O)[C@H](CO)NC(=O)[C@H](CCCNC(=N)N)NC(=O)[C@@H](NC(=O)[C@@H](N)[C@@H](C)O)CSSC[C@@H](C(=O)N[C@H](C(=O)O)C(C)C)NC(=O)[C@H](C)NC(=O)[C@H](CC(=O)O)NC(=O)[C@H]([C@@H](C)O)NC1=O)C(=O)N[C@@H](CCCNC(=N)N)C(=O)N[C@@H](CO)C(=O)N1CCC[C@H]1C(=O)N[C@@H](C)C(=O)N[C@@H](CC(=O)O)C(=O)N[C@@H](CCCNC(=N)N)C(=O)N[C@@H](CCCNC(=N)N)C(=O)N[C@@H](CCCNC(=N)N)C(=O)N[C@@H](CCCNC(=N)N)C(=O)N[C@@H](Cc1ccc(O)cc1)C(=O)N2`, the Ratio IC50 in test [1] is 0.6; in test [2] it was 26.
For `CC[C@H](C)[C@@H]1NC(=O)[C@H](CCCNC(=N)N)NC(=O)[C@H](CCCNC(=N)N)NC(=O)[C@@H]2CSSC[C@H](NC(=O)[C@H](C)NC(=O)[C@H](CCCNC(=N)N)NC(=O)CNC(=O)[C@H](CO)NC(=O)[C@H](CO)NC(=O)[C@H](CCCNC(=N)N)NC(=O)[C@@H](NC(=O)[C@@H](N)[C@@H](C)O)CSSC[C@@H](C(=O)N[C@H](C(=O)O)C(C)C)NC(=O)[C@H](C)NC(=O)[C@H](CC(=O)O)NC(=O)[C@H]([C@@H](C)O)NC1=O)C(=O)N[C@@H](CCCNC(=N)N)C(=O)N[C@@H](CO)C(=O)N1CCC[C@H]1C(=O)N[C@@H](Cc1ccc(O)cc1)C(=O)N[C@@H](CC(=O)O)C(=O)N[C@@H](CCCNC(=N)N)C(=O)N[C@@H](CCCNC(=N)N)C(=O)N[C@@H](CCCNC(=N)N)C(=O)N[C@@H](CCCNC(=N)N)C(=O)N[C@@H](Cc1ccc(O)cc1)C(=O)N2`, the Ratio IC50 in test [1] was 0.7; in test [2], 5.1.

The values above are taken from ChEMBL document CHEMBL5346973 (J Med Chem, 2023).
